A mixed list of measured activities; the numbers were collected in NIAID ChemDB.

Shared fields: growth or infection tests; organism: HIV-1; read by: syncytia; measure: fold resistance

Rows are shuffled and stem from different studies. Fold resistance has wild type as its base. An empty or dashed field is not shown.

SMILES	strain or isolate	cells	mutations	value
Nc1nc2c(ncn2[C@H]2CC[C@@H](CO)O2)c(=O)[nH]1	IIIB TIBO R82913 STR-B22 (RT L100I Y188H)	CEM	RT-L100I Y188H	2
CCOCn1c(Cc2ccccc2)c(CC)c(=O)[nH]c1=O	IIIB PYR(RT-Y181C)	CEM	RT-Y181C	27.5
CC(C)Nc1cccnc1N1CCN(C(=O)c2cc3cc(NS(C)(=O)=O)ccc3[nH]2)CC1	Quin-0.02(RT-V106A)	CEM	RT-V106A	17.5
Nc1ccn([C@H]2CC[C@@H](CO)O2)c(=O)n1	IIIB-BHAP)(0.1)(RT-L100I	CEM	RT-L100I	0.4
Cc1cn([C@H]2C[C@H](N=[N+]=[N-])[C@@H](CO)O2)c(=O)[nH]c1=O	IIIB TIBO R82913 STR-B22 (RT L100I Y188H)	CEM	RT-L100I Y188H	15
O=c1[nH]cnc2c1ncn2[C@H]1CC[C@@H](CO)O1	IIIB-BHAP)(0.1)(RT-L100I	CEM	RT-L100I	2.6
Cc1cn([C@@H]2O[C@H](CO[Si](C)(C)C(C)(C)C)C3(OS(=O)(=O)C=C3N)[C@H]2O[Si](C)(C)C(C)(C)C)c(=O)n(C)c1=O	IIIB PYR(RT-Y181C)	CEM	RT-Y181C	73.3
O=C1N(Cc2ccccc2)c2cscc2S(=O)(=O)N1Cc1ccccc1	-	CEM	RT-E138K	≥5.78
Nc1ncnc2c1ncn2CCOCP(=O)(O)O	IIIB-TSAO-m3T(10)(RT-Y181C)	CEM	RT-Y181C	0.857
Cc1cn([C@@H]2O[C@H](CO[Si](C)(C)C(C)(C)C)C3(OS(=O)(=O)C=C3N)[C@H]2O[Si](C)(C)C(C)(C)C)c(=O)n(C)c1=O	HEPT (RT Y188H)	CEM	RT-Y188H	1875
N#CCN1C(=O)N(Cc2ccccc2)S(=O)(=O)c2cscc21	ADP/141	MT-4	RT-D67N K70R T215F K219Q	1.33
CC(C)=CCN1Cc2cc(Cl)cc3[nH]c(=S)n(c23)C[C@@H]1C	IIIB TIBO R82913 STR-2 (RT K103N)	CEM	RT-K103N	≥250
CCN1C(=O)N(Cc2cccc(Cl)c2)S(=O)(=O)c2cscc21	-	CEM	RT-V106A	30.5
Cc1cn([C@H]2C[C@H](N=[N+]=[N-])[C@@H](CO)O2)c(=O)[nH]c1=O	IIIB-TSAO-m3T(10)(RT-Y181C)	CEM	RT-Y181C	0.667
CN1C(=O)N(Cc2ccccc2)S(=O)(=O)c2cscc21	-	CEM	RT-V106A	>141
Nc1ccn([C@H]2CC[C@@H](CO)O2)c(=O)n1	IIIB TIBO R82913 STR-2 (RT K103N)	CEM	RT-K103N	0.4
CCc1cc(NCc2nc3c(Cl)ccc(Cl)c3o2)c(=O)[nH]c1C	IIIB PYR(RT-Y181C)	CEM	RT-Y181C	≥714
C=C(C)OC(=O)N1c2cc(Cl)ccc2NC(=S)C1(C)C	TSAO(RT-E138K)	CEM	RT-E138K	1.79
CCOCn1c(Sc2ccccc2)c(CC)c(=O)[nH]c1=S	IIIB HEPT-resistant (RT Y188H)	CEM	RT-Y188H	≥5000
CCn1c(=O)c(C)cn([C@@H]2O[C@H](CO[Si](C)(C)C(C)(C)C)C3(OS(=O)(=O)C=C3N)[C@H]2O[Si](C)(C)C(C)(C)C)c1=O	IIIB TSAO-T(RT-E138K)	CEM	RT-E138K	>1670
Cc1c(Sc2ccccc2)n(COCCO)c(=O)[nH]c1=O	IIIB E-EBU(RT-Y181C)	CEM	RT-Y181C	>13.3
O=c1[nH]cnc2c1ncn2[C@H]1CC[C@@H](CO)O1	IIIB TSAO-T(RT-E138K)	CEM	RT-E138K	2
Nc1nc2c(ncn2[C@H]2CC[C@@H](CO)O2)c(=O)[nH]1	NEV(RT-V106A)	CEM	RT-V106A	0.7

The last 2 rows once more:

SMILES | strain or isolate | cells | mutations | value
O=c1[nH]cnc2c1ncn2[C@H]1CC[C@@H](CO)O1 | IIIB TSAO-T(RT-E138K) | CEM | RT-E138K | 2
Nc1nc2c(ncn2[C@H]2CC[C@@H](CO)O2)c(=O)[nH]1 | NEV(RT-V106A) | CEM | RT-V106A | 0.7